# Like-named read-outs stand apart in the source and are kept apart here.
# Key:
# CD4+ T cells = assay: CD4+ T cell levels in HIV patients treated with hCG preparations; format: in vivo, human
# [1] = Weight change in patients treated with hCG preparations; format: in vivo, human
substance,measurement,setting,value
APL: commercial crude hCG preparation from Wyeth-Ayerst Laboratories,CD4/mm^3 Rx,"CD4+ T cells; patient PG-1 (on RT inhibitors), KS-C, 35,000 IU/week, Rx 16+ weeks, PreRX 63, M4",170 /mm^3
same,CD4/mm^3 Rx,"CD4+ T cells; patient PG-3 (on RT and protease inhibitors), KS-C, 35,000 IU/week, Rx 16+ weeks, PreRX 37, M4",48 /mm^3
same,CD4/mm^3 Rx,"CD4+ T cells; patient PG-4 (no other antiviral therapy), KS-C, 35,000 IU/week, Rx 16+ weeks, PreRX 47, M4",424 /mm^3
same,CD4/mm^3 Rx,"CD4+ T cells; patient PG-6 (on RT and protease inhibitors), KS-C, 35,000 IU/week, Rx 12+ weeks, PreRX 29, M3",21 /mm^3
same,CD4/mm^3 Rx,"CD4+ T cells; patient PG-7, KS-C, 30,000 IU/week, Rx 10+ weeks, PreRX 108",213 /mm^3
same,CD4/mm^3 Rx,"CD4+ T cells; patient PG-8, KS-C, 30,000 IU/week, Rx 12 weeks, PreRX 787",678 /mm^3
same,CD4/mm^3 Rx,"CD4+ T cells; patient PG-9, KS-C, 30,000 IU/week, Rx 11+ weeks, PreRX 123",218 /mm^3
same,CD4/mm^3 Rx,"CD4+ T cells; patient PG-10 (on RT inhibitors), KS-C, 30,000 IU/week, Rx 12 weeks, PreRX 82",86 /mm^3
same,CD4/mm^3 Rx,"CD4+ T cells; patient PG-11 (on RT inhibitors), KS-C, 30,000 IU/week, Rx 4.5 weeks, PreRX 218",361 /mm^3
same,CD4/mm^3 Rx,"CD4+ T cells; patient PG-12, KS-C, 30,000 IU/week, Rx 19+ weeks, PreRX 22",46 /mm^3
same,CD4/mm^3 Rx,"CD4+ T cells; patient PG-15 (no other therapy), KS-C, 70,000 IU/week, Rx 8 weeks, PreRX 388",483 /mm^3
same,Viral Load Rx,"HIV-1; patient PG-1 (on RT inhibitors), KS-C, 35,000 IU/week, Roche Amplicor, PreRX 75,000","1,700 copies"
same,Viral Load Rx,"HIV-1; patient PG-3 (on RT and protease inhibitors), KS-C, 35,000 IU/week, Roche Amplicor, PreRX 52,000","40,000 copies"
same,Viral Load Rx,"HIV-1; patient PG-4, KS-C, 35,000 IU/week, Roche Amplicor, PreRX 80,900","55,000 copies"
same,Viral Load Rx,"HIV-1; patient PG-6 (on RT and protease inhibitors), KS-C, 35,000 IU/week, Roche Amplicor, PreRX 62,500","98,000 copies"
same,Viral Load Rx,"HIV-1; patient PG-8, KS-C, 30,000 IU/week, Roche Amplicor, PreRX 60.760","22,313 copies"
same,Viral Load Rx,"HIV-1; patient PG-10 (on RT inhibitors), KS-C, 30,000 IU/week, Roche Amplicor, PreRX 25,364","6,777 copies"
same,Viral Load Rx,"HIV-1; patient PG-11 (on RT inhibitors), KS-C, 30,000 IU/week, Roche Amplicor, PreRX 661",260 copies
same,Viral Load Rx,"HIV-1; patient PG-15 (no other therapy), KS-C, 70,000 IU/week, Roche Amplicor, PreRX 6,162","22,510 copies"
same,Weight gain,"[1]; patient PG-1, KS-C, 35,000 IU/week, Rx 16+ weeks",-0.9 kg
same,Weight gain,"[1]; patient PG-3, KS-C, 35,000 IU/week, Rx 16+ weeks",+1.8 Kg
same,Weight gain,"[1]; patient PG-4, KS-C, 35,000 IU/week, Rx 16+ weeks",+1.4 Kg
same,Weight gain,"[1]; patient PG-6, KS-C, 35,000 IU/week, Rx 12+ weeks",+3.2 Kg
same,Weight gain,"[1]; patient PG-7, KS-C, 30,000 IU/week, Rx 10+ weeks",+4.5 Kg
same,Weight gain,"[1]; patient PG-8, KS-C, 30,000 IU/week, Rx 12 weeks",+2.3 Kg
same,Weight gain,"[1]; patient PG-9, KS-C, 30,000 IU/week, Rx 11+ weeks",-5.0 kg
same,Weight gain,"[1]; patient PG-10, KS-C, 30,000 IU/week, Rx 12 weeks",+2.3 Kg
same,Weight gain,"[1]; patient PG-11, KS-C, 30,000 IU/week, Rx 4.5 weeks",+5.4 Kg
same,Weight gain,"[1]; patient PG-12, KS-C, 30,000 IU/week, Rx 19+ weeks",+10.0 Kg
same,Weight gain,"[1]; patient PG-15, KS-C, 70,000 IU/week, Rx 8 weeks",+1.8 Kg
PA: codes P and A together: patient received both Pregnyl and APL hCG preparations,CD4/mm^3 Rx,"CD4+ T cells; patient PH-SPBE (on RT inhibitors), KS-C, 25,000 IU/week, Rx 29+ weeks, PreRX 48, M3",174 /mm^3
same,Viral Load Rx,"HIV-1; patient PH-SPBE (on RT inhibitors), KS-C, 25,000 IU/week, NASBA, PreRX 1,490,000, before Ritonavir was added","770,000 copies"
same,Weight gain,"[1]; patient PH-SPBE, KS-C, 25,000 IU/week, Rx 29+ weeks",+1 Kg
"Pregnyl: commercial hCG preparation from Organon, Inc.",CD4/mm^3 Rx,"CD4+ T cells; patient PH-GF, KS-C, 12,500 IU/week, Rx 18+ weeks, PreRX 3, M2",35 /mm^3
same,CD4/mm^3 Rx,"CD4+ T cells; patient PH-GRX (on RT inhibitors), KS-C, 12,500 IU/week, Rx 17+ weeks, PreRX 97, M2",89 /mm^3
same,CD4/mm^3 Rx,"CD4+ T cells; patient PH-LE, KS-VC, 30,000 IU/week, Rx 12+ weeks, PreRX <5, M1",< 5 /mm^3
same,CD4/mm^3 Rx,"CD4+ T cells; patient PH-MP, KS-C, 30,000 IU/week, Rx 24+ weeks, PreRX 360, M3",505 /mm^3
same,CD4/mm^3 Rx,"CD4+ T cells; patient PH-OJ (on RT inhibitors), KS-C, 12,500 IU/week, Rx 31+ weeks, PreRX 14, M4",3 /mm^3
same,CD4/mm^3 Rx,"CD4+ T cells; patient PH-RF (on RT inhibitors), KS-V, 15,000 IU/week, Rx 12+ weeks, PreRX 0, M3",17 /mm^3
same,CD4/mm^3 Rx,"CD4+ T cells; patient PH-SP (on RT inhibitors), KS-VC, 30,000 IU/week, Rx 8+ weeks, PreRX 6, M1",5 /mm^3
same,CD4/mm^3 Rx,"CD4+ T cells; patient PH-VE (on RT inhibitors), KS-C, 12,500 IU/week, Rx 80+ weeks, PreRX 105, M4",160 /mm^3
same,CD4/mm^3 Rx,"CD4+ T cells; patient PH-VE, KS-C, 30,000 IU/week (M20), PreRX 105, M20 (text: 68 weeks)",204 /mm^3
same,CD4/mm^3 Rx,"CD4+ T cells; patient PO-BO (on RT inhibitors), KS-C, 12,500 IU/week, Rx 6+ weeks, PreRX 12, M1.5",12 /mm^3
same,CD4/mm^3 Rx,"CD4+ T cells; patient PO-CJP (on RT inhibitors), KS-C, 12,500 IU/week, Rx 6+ weeks, PreRX 14, M1.5",14 /mm^3
same,CD4/mm^3 Rx,"CD4+ T cells; patient PO-DU (on RT inhibitors), KS-VC, 12,500 IU/week, Rx 37+ weeks, PreRX 5, M2",10 /mm^3
same,CD4/mm^3 Rx,"CD4+ T cells; patient PO-FY (on RT inhibitors), KS-C, 12,500 IU/week, Rx 6+ weeks, PreRX 180, M2",202 /mm^3
same,CD4/mm^3 Rx,"CD4+ T cells; patient PO-GE (on RT inhibitors), KS-VC, 15,000 IU/week, Rx 48+ weeks, PreRX 10, M4",10 /mm^3
same,CD4/mm^3 Rx,"CD4+ T cells; patient PO-LC (on RT inhibitors), KS-VC, 12,500 IU/week, Rx 12+ weeks, PreRX 70, M3",72 /mm^3
same,CD4/mm^3 Rx,"CD4+ T cells; patient PO-RB (on RT inhibitors), KS-VC, 12,500 IU/week, Rx 4+ weeks, PreRX 50, 1M",35 /mm^3
same,Viral Load Rx,"HIV-1; patient PH-DP (on RT inhibitors), No KS, 30,000 IU/week, Rx 8+ weeks, TCID, PreRX 100, 1 mo",1
same,Viral Load Rx,"HIV-1; patient PH-GF, KS-C, 12,500 IU/week, NASBA, PreRX 1,100,000","150,000 copies"
same,Viral Load Rx,"HIV-1; patient PH-OJ (on RT inhibitors), KS-C, 12,500 IU/week, RT-PCR, PreRX 100,000","2,500 copies"
same,Viral Load Rx,"HIV-1; patient PH-RF (on RT inhibitors), KS-V, 15,000 IU/week, NASBA (lower detection limit 4,000 copies), PreRX 69,000",< 4000 copies
same,Viral Load Rx,"HIV-1; patient PH-VE (on RT inhibitors), KS-C, 12,500 IU/week, NASBA, PreRX 230,000","11,000 copies"
same,Viral Load Rx,"HIV-1; patient PO-DU (on RT inhibitors), KS-VC, 12,500 IU/week, NASBA, PreRX 420,000","300,000 copies"
same,Weight gain,"[1]; patient PH-GF, KS-C, 12,500 IU/week, Rx 18+ weeks",+2 Kg
same,Weight gain,"[1]; patient PH-GRX, KS-C, 12,500 IU/week, Rx 17+ weeks, (diet)",-3 kg
same,Weight gain,"[1]; patient PH-MP, KS-C, 30,000 IU/week, Rx 24+ weeks",+3 Kg
same,Weight gain,"[1]; patient PH-OJ, KS-C, 12,500 IU/week, Rx 31+ weeks",+3 Kg
same,Weight gain,"[1]; patient PH-RF, KS-V, 15,000 IU/week, Rx 12+ weeks",+1 Kg
same,Weight gain,"[1]; patient PH-SP, KS-VC, 30,000 IU/week, Rx 8+ weeks",0 kg
same,Weight gain,"[1]; patient PH-VE, KS-C, 12,500 IU/week, Rx 80+ weeks",+6 Kg
same,Weight gain,"[1]; patient PO-BO, KS-C, 12,500 IU/week, Rx 6+ weeks",+1.5 Kg
same,Weight gain,"[1]; patient PO-CJP, KS-C, 12,500 IU/week, Rx 6+ weeks",+1 Kg
same,Weight gain,"[1]; patient PO-DU, KS-VC, 12,500 IU/week, Rx 37+ weeks",+2 Kg
same,Weight gain,"[1]; patient PO-FY, KS-C, 12,500 IU/week, Rx 6+ weeks",+1.5 Kg
same,Weight gain,"[1]; patient PO-GE, KS-VC, 15,000 IU/week, Rx 48+ weeks",0 kg
same,Weight gain,"[1]; patient PO-LC, KS-VC, 12,500 IU/week, Rx 12+ weeks",+1.5 Kg
same,Weight gain,"[1]; patient PO-RB, KS-VC, 12,500 IU/week, Rx 4+ weeks",+1 Kg

# Source: patent US5997871A (priority 1996, dated 1999)
